Single amino acid changes in Zika NS2B-NS3 and viral growth

The measurements come from Ni et al. 2025 (doi:10.1038/s41467-025-63602-z).

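Mutant virus pools were grown in human Huh-7.5 cells. Sequencing of three replicate libraries (two for positions 207-308) was averaged into one effect per change. The study looked for pockets that tolerate few changes, as a guide for inhibitor design.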

Chain scanned (Zika virus MR766; NS2B from position 2 to 131, then the start of NS3):
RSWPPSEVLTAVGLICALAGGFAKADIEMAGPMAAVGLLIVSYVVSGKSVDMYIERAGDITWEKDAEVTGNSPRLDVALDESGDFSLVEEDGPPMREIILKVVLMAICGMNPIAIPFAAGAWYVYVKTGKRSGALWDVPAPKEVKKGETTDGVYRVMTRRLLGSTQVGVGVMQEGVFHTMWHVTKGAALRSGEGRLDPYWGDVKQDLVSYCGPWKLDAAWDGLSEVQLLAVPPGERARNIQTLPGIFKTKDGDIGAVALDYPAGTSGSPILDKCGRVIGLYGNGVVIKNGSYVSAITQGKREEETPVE

Scale: log2 effect, wild type = 0; the lower, the more harmful to the virus.
Substitutions are written as wild-type residue, site number, new residue.
An asterisk is a stop codon; stop codons read about -7, near the floor of the assay.
The region was split into three libraries (1-103, 104-206, 207-308).
Values above 0 are not proof of better growth: six high scorers were tested one by one, five grew less well than wild type and one about as well.
The authors count -1 or higher as tolerated. Position 1 is the last residue of NS2A.

| # | substitution | log2 effect |
|---|---|---|
| 1 | T165I | -1.42 |
| 2 | D260Q | -2.78 |
| 3 | S6V | -4.02 |
| 4 | R56L | -2.35 |
| 5 | L104A | -4.00 |
| 6 | S42N | -4.56 |
| 7 | S2Q | -6.60 |
| 8 | G47N | -1.67 |
| 9 | D217E | -0.76 |
| 10 | F22I | -0.81 |
| 11 | A78P | -7.10 |
| 12 | F22* | -7.69 |
| 13 | G37W | -2.30 |
| 14 | V169A | -0.73 |
| 15 | A30C | 0.07 |
| 16 | L100P | -6.91 |
| 17 | C274G | -1.01 |
| 18 | S72L | -7.28 |
| 19 | K24C | -3.05 |
| 20 | A106I | 0.20 |
| 21 | P269Q | -5.80 |
| 22 | A134H | -4.79 |
| 23 | A23D | -3.82 |
| 24 | D84W | -5.99 |
| 25 | H182T | -5.88 |
| 26 | C211H | -1.25 |
| 27 | Y43T | -6.69 |
| 28 | M33W | -0.20 |
| 29 | P94H | -3.14 |
| 30 | D197F | -6.44 |
| 31 | A188E | -3.81 |
| 32 | G168P | -6.17 |
| 33 | S6Q | -4.86 |
| 34 | G234S | -1.94 |
| 35 | Y261E | 0.96 |
| 36 | M180P | -5.82 |
| 37 | W62G | -7.76 |
| 38 | D84F | -5.82 |
| 39 | D137M | -6.37 |
| 40 | D91P | -2.03 |
| 41 | P232L | -1.00 |
| 42 | A219V | 1.34 |
| 43 | L39E | -4.09 |
| 44 | T265P | -5.35 |
| 45 | E67D | -3.13 |
| 46 | F247M | -5.33 |
| 47 | A25K | -5.14 |
| 48 | E28H | -1.70 |
| 49 | D206M | -5.64 |
| 50 | S294N | -5.07 |
| 51 | G163K | -4.21 |
| 52 | K142F | -3.83 |
| 53 | M172V | -3.66 |
| 54 | G70I | -5.89 |
| 55 | V208* | -9.85 |
| 56 | C211D | -2.04 |
| 57 | Q227R | -5.76 |
| 58 | G170H | -5.09 |
| 59 | L229I | -2.38 |
| 60 | L18T | -2.64 |
| 61 | S46F | -6.04 |
| 62 | M105E | -6.06 |
| 63 | P306I | -1.48 |
| 64 | V103D | -5.25 |
| 65 | G194F | -5.79 |
| 66 | A187T | -4.56 |
| 67 | A140D | -6.24 |
| 68 | Q166K | -6.21 |
| 69 | A218E | -6.81 |
| 70 | M180Q | -4.62 |
| 71 | G234M | -4.88 |
| 72 | C16S | -2.23 |
| 73 | V77* | -8.13 |
| 74 | M33I | -0.39 |
| 75 | G133I | -5.20 |
| 76 | I27N | -2.36 |
| 77 | V124N | -2.13 |
| 78 | G20C | -5.41 |
| 79 | D272H | -3.77 |
| 80 | G299P | -5.59 |
| 81 | Y43P | -6.27 |
| 82 | I113D | -4.69 |
| 83 | I40A | -1.21 |
| 84 | G168D | -4.75 |
| 85 | I296C | -4.67 |
| 86 | Q227I | -5.48 |
| 87 | E235A | -0.69 |
| 88 | G245N | -5.37 |
| 89 | F22Q | -2.61 |
| 90 | D80G | -7.05 |
| 91 | S209R | -7.44 |
| 92 | K273F | -2.81 |
| 93 | G70Y | -6.30 |
| 94 | V8T | -1.41 |
| 95 | G120D | -5.88 |
| 96 | K48H | -5.70 |
| 97 | G194R | -7.38 |
| 98 | M157I | 4.47 |
| 99 | D217M | -5.08 |
| 100 | K250V | -1.91 |